# The supplement of paper PMC9931576
# Human monoclonal antibodies against the spike receptor-binding domain (heavy:light variable regions). IC50 against pseudoviruses bearing the spike of naturally observed variants; lower = stronger; >10 µg/ml means not reached at the top dose. No active / inactive call. The stated detection limit is 0.0005 µg/ml; values near or below 0.001 µg/ml lie at the floor of the assay.
# B1: BD56-1213 (protein)
# chain 1: EVQLVESGGGLVQPGGSLRLSCAASGFTFGDYWMSWVRQAPGKGLEWVANIKQDGSEKYYVDSVRGRFTISRDNAKNSLFLQMNSLRPEDTAVYYCVRVWQWLGVDYWGQGTLVTVSS
# chain 2: NFMLTQPHSVSESPGKTVTISCTGSSGSIANNYVQWYHQRPGSAPTTVIFEDNQRPSGVPDRFSGSIDSSSNSASLTISGLKTEDEADYYCQSFDGIFWVFGGGTKLTVL
# B2: BD56-1227 (protein)
# chain 1: QVQLVESGGGLVKPGGSLRLSCAASAFTFTNAWMSWVRQAPGKGLEWVGRIKSKIDGGTTDYAAPVKGRFTISRDDSKHMLYLQMNGLKTEDTAVYYCTTDLLNPDYFGSGTHYKPKIMDVWGQGTTVTVSS
# chain 2: SYELTQPPSVSVSPGQTASITCSGDKLGDKYTCWYKQRPGQSPVLVIYEDTKRPSGIPERFSGSNSGNTATLTISGTQAIDEADYYCQAWDSSTQVFGGGTKLTVL
# B3: BD56-290 (protein)
# chain 1: QVQLQESGPGLVKPSETLSLTCTVSGDSISSYYWSWIRQPPGKGLEWIGYIYYSGSTNYNPSLKSRVTISVDTSKNQFSLKLSSVTAADTAVYYCARGAGGGDWFDPWGQGTLVTVSS
# chain 2: DIVMTQSPDSLAVSLGERATINCKSSQSVLYSSNNKNYLAWYQQKPGQPPKLLIYWASTRESGVPDRFSGSGSGTDFTLTISSLQAEDVAVYYCQQYYRTPLTFGGGTKVEIK
# B4: BD56-1362 (protein)
# chain 1: EVQLVESGGGLVQPGGSLRLSCAASGFTFSSYEMNWVRQAPGKGLEWLSYISSSGSTIYYADSVKGRFTISRDNAKNSLYLQLNSLRAEDTAVYYCATDEFWSGLYYMDVWGKGTTVIVSS
# chain 2: DIQMTQSPSSVSASVGDRVTITCRASQGISSWLAWYQQKPGKAPKLLISAASSLQSGVPSRFSGSGSGTDFTLTISSLQPEDFATYYCQQANSFPRTFGQGTKLEIK
# B5: BD58-0401 (protein)
# chain 1: QITLKESGPTLVKPTQTLTLTCTFSGFSLSTSGVGVGWIRQPPGKALEWLALIYWDDDKRYSPSLKSRLTITKDTSKNQVVLTMTNMDPVDTATYYCAQLQYCGGDCYPFDYWGQGTLVTVSS
# chain 2: not shown
# B6: BD58-0438 (protein)
# chain 1: EVQLVQSGAEVKKPGESLKISCKVSAYSFTSYWIGWVRQMPGKGLEWMGIIYPGDSDTRYSPSFRGQVTISADKSISTSYLQWSSLKASDTAMYYCARMLWFGDAAHMDVWGQGTTVTVSS
# chain 2: QSALTQPASVSGSPGQSITISCTGTSSDVGAHDYVSWYQQHPGKAPKLMIYDVSNRPSGVSNRFSGSKSGNTASLTISGLQAEDEADYYCSSYTSSSTLWVFGGGTKLTVL
# B7: BD58-0464 (protein)
# chain 1: EVQLVQSGAEVKKPGESLKISCKGSGYSFTIYWIGWVRQMPGKGLEWMGIIYPGDADTRYSPSFQGQVIISADKSTSTAYLQWNSLKASDTAMYYCARHYASGSYTTVLDYWGQGTLVTVSS
# chain 2: QSVLTQPPSVSAAPGQKVTISCSGSTSNIGNNYVSWYQQLPETAPKLLIYDNNKRPSGIPDRFSGSKSGTSATLVITGLQTGDEADYYCGTWDSSLSAGGVFGGGTKLTVL
# B8: BD58-0538 (protein)
# chain 1: EVQLVQSGAEVKKPGESLKISCRVSGYDFDSYWIGWVRQTPGKGLEWMGIVYPDDSDTRHSPSFHGQVIVSADKSISTAYLQWKSLKASDTAIYYCARHRGRTYSGTLDYWGLGTPVIVSS
# chain 2: DIQMTQSPSSLSASVGNRVTITCRASQDIGNSLNWYQQKSGRAPKLLISDASNLETGVTSRFSGSGSGRDFTFTISSLQPEDIATYYCQHYGNLPFTFGPGTKVDIK
# B9: BD56-301 (protein)
# chain 1: QVQLVQSGAEVKKPGASVKVSCKVSGYTLTELSMHWVRQAPGKGLEWMGGFDPEGAETIYAQNFQGRVTMTEDTSTDTAYMELSSLRSEDTAVFYCATVPPGATRSYVFDIWGQGTMVTVSS
# chain 2: DIQMTQSPSSVSASVGDRVTITCRASQGISSWLAWYQQKPGKAPKLLIYAASNLQSGVPSRFSGSESGTDFTLTISSLQPEDFATYYCHQANSFPHTFGQGTKVEIK
# B10: BD57-0246 (protein)
# chain 1: EVQLVQSGAEVKKPGESLKISCKGSGYSFTSYWIAWVRQMPGKGLEWMGIIYPGDSDTRYSPSFQGQVTISADKSISTAYLQWSSLKASDTAMYYCARSMSEDAFDIWGQGTMVTVSS
# chain 2: SYVLTQPPSVSVAPGKTARITCGGNNFGSKSVHWYQQKPGQAPVLVIYYDSDRPSGIPERFSGSNSGNTATLTISRVEAGDEADYYCQVWDSSSDHPNVFGTGTKVTVL
# Target: SARS-CoV-2 Omicron BA.1 spike pseudovirus
# Experiment: pseudovirus neutralization IC50; higher = weaker neutralization
# Method: (§1)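 Single-round VSV luciferase pseudovirus mixed with antibody dilutions for 1 h and put on Huh-7 cells for about a day; IC50 from the dose curve.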
row,Binder,pseudovirus neutralization IC50 [µg/mL]
1,B1,> 10
2,B2,0.00425
3,B3,0.143
4,B4,> 10
5,B5,> 10
6,B6,> 10
7,B7,> 10
8,B8,> 10
9,B9,0.0821
10,B10,> 10

# Target: SARS-CoV-2 Omicron BA.2 spike pseudovirus
# Experiment: as above
# Method: as §1
row,Binder,pseudovirus neutralization IC50 [µg/mL]
1,B1,0.414
2,B2,0.00314
3,B3,> 10
4,B4,0.000686
5,B5,> 10
6,B6,> 10
7,B7,> 10
8,B8,> 10
9,B9,> 10
10,B10,0.511

# Target: SARS-CoV-2 Omicron BA.2.75 spike pseudovirus
# Experiment: as above
# Method: as §1
row,Binder,pseudovirus neutralization IC50 [µg/mL]
1,B1,> 10
2,B2,> 10
3,B3,> 10
4,B4,1.22
5,B5,> 10
6,B6,> 10
7,B7,> 10
8,B8,> 10
9,B9,> 10
10,B10,> 10

# Target: SARS-CoV-2 Omicron BA.2.75.2 spike pseudovirus
# Experiment: as above
# Method: as §1
row,Binder,pseudovirus neutralization IC50 [µg/mL]
1,B1,> 10
2,B2,> 10
3,B3,> 10
4,B4,> 10
5,B5,> 10
6,B6,> 10
7,B7,> 10
8,B8,> 10
9,B9,> 10
10,B10,> 10

# Target: SARS-CoV-2 Omicron BA.5 spike pseudovirus
# Experiment: as above
# Method: as §1
row,Binder,pseudovirus neutralization IC50 [µg/mL]
1,B1,> 10
2,B2,> 10
3,B3,> 10
4,B4,> 10
5,B5,> 10
6,B6,> 10
7,B7,> 10
8,B8,> 10
9,B9,> 10
10,B10,0.389

# Target: SARS-CoV-2 Omicron BM.1.1.1 spike pseudovirus
# Experiment: as above
# Method: as §1
row,Binder,pseudovirus neutralization IC50 [µg/mL]
1,B1,> 10
2,B2,> 10
3,B3,> 10
4,B4,> 10
5,B5,> 10
6,B6,> 10
7,B7,> 10
8,B8,> 10
9,B9,> 10
10,B10,> 10

# Target: SARS-CoV-2 Omicron BQ.1.1 spike pseudovirus
# Experiment: as above
# Method: as §1
row,Binder,pseudovirus neutralization IC50 [µg/mL]
1,B1,> 10
2,B2,> 10
3,B3,> 10
4,B4,> 10
5,B5,> 10
6,B6,> 10
7,B7,> 10
8,B8,> 10
9,B9,> 10
10,B10,> 10

# Target: SARS-CoV-2 Omicron BR.2 spike pseudovirus
# Experiment: as above
# Method: as §1
row,Binder,pseudovirus neutralization IC50 [µg/mL]
1,B1,> 10
2,B2,> 10
3,B3,> 10
4,B4,> 10
5,B5,> 10
6,B6,> 10
7,B7,> 10
8,B8,> 10
9,B9,> 10
10,B10,> 10

# Target: SARS-CoV-2 Omicron CA.1 spike pseudovirus
# Experiment: as above
# Method: as §1
row,Binder,pseudovirus neutralization IC50 [µg/mL]
1,B1,> 10
2,B2,> 10
3,B3,> 10
4,B4,> 10
5,B5,> 10
6,B6,> 10
7,B7,> 10
8,B8,> 10
9,B9,> 10
10,B10,> 10

# Target: SARS-CoV-2 Omicron XBB spike pseudovirus
# Experiment: as above
# Method: as §1
row,Binder,pseudovirus neutralization IC50 [µg/mL]
1,B1,> 10
2,B2,> 10
3,B3,> 10
4,B4,> 10
5,B5,> 10
6,B6,> 10
7,B7,> 10
8,B8,> 10
9,B9,> 10
10,B10,> 10

# Target: SARS-CoV-2 early D614G spike pseudovirus
# Experiment: as above
# Method: as §1
row,Binder,pseudovirus neutralization IC50 [µg/mL]
1,B1,> 10
2,B2,> 10
3,B3,> 10
4,B4,> 10
5,B5,> 10
6,B6,> 10
7,B7,> 10
8,B8,> 10
9,B9,> 10
10,B10,> 10
